Laboratory results: PubChem BioAssay AID624099 (ICCB-Longwood, 2012)

Test: 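Knock-downs relieving repression by E2 of an HPV18 LCR luciferase reporter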 (primary screen)
System: human C33A cervical carcinoma cells (HPV-negative) stably expressing BPV1 E2 and an HPV18 LCR luciferase reporter
Knock-down reagent: siRNA pool against human genes, 40 nM
Time to read-out: 72 h
Detection: 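HPV18 LCR reporter light per well, converted to plate-wise z-scores that exclude control wells, and averaged over triplicate plates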
Direction: mean z-score and z-score: higher = stronger reporter signal, weaker E2 silencing
Active means: 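Hit if mean z-score reaches 2 and two or more of three replicate z-scores also reach 2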
The whole screen tested about 21,000 reagents; this is an unselected part. Of all reagents, 497 (2.4%) were called active. 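Higher z means weaker E2 silencing; only reporter increases were scored, and knock-downs that hurt cell survival may mask genuine repressor factors.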 Unmarked entries are inactive.

The first 5 entries, to show the layout:
gene symbol | mean z-score | z-score, replicate A | z-score, replicate B | z-score, replicate C
ARHGAP40 | 0.15 | 0 | 0.1 | 0.36
MYH9 | -0.32 | -0.18 | -0.42 | -0.36
MASTL | -1.28 | -0.96 | -1.88 | -1
KRABD5 | 0.01 | -0.02 | -0.16 | 0.23
MT1X | 0.27 | 0.1 | 0.45 | 0.25

The listing, from the start:
gene symbol | mean z-score | z-score, replicate A | z-score, replicate B | z-score, replicate C
ARHGAP40 | 0.15 | 0 | 0.1 | 0.36
MYH9 | -0.32 | -0.18 | -0.42 | -0.36
MASTL | -1.28 | -0.96 | -1.88 | -1
KRABD5 | 0.01 | -0.02 | -0.16 | 0.23
MT1X | 0.27 | 0.1 | 0.45 | 0.25
RP1L1 | -0.02 | 0.01 | -0.09 | 0.02
GABRG1 | -0.42 | -0.3 | -0.44 | -0.51
MB | -1.09 | -1.13 | -0.93 | -1.22
COL10A1 | -0.54 | -0.57 | -0.58 | -0.47
IDE | -0.27 | -0.33 | -0.05 | -0.42
TBX6 | -0.58 | -0.52 | -0.53 | -0.7
LINC01181 | 0.12 | -0.12 | 0.34 | 0.14
CRTC1 | 1.49 | 1.67 | 1.18 | 1.61
LINC02245 | 0.1 | 0.54 | -0.21 | -0.02
COX6C | -1.72 | -1.8 | -1.61 | -1.76
KLRC4 | 0.2 | 0.37 | 0.23 | 0
RFC3 | 0.22 | 0.08 | 0.31 | 0.28
ZNF804A | 0.36 | 1.01 | 0.05 | 0.03
DCAKD | -0.31 | 0.23 | -0.66 | -0.5
OR2H1 | 0.77 | 1.07 | 0.51 | 0.73
LARP1B | -0.86 | -1.31 | -1.2 | -0.07
SDE2 | -1.02 | -1.14 | -1.08 | -0.83
AADAC | -0.06 | -0.02 | -0.16 | -0.01
INIP | 1.44 | 1.33 | 1.74 | 1.24
SH2D2A | 0.15 | 0.27 | 0.49 | -0.31
RMI1 | 0.69 | 0.48 | 0.82 | 0.77
HOMER3 | 0.18 | 0.32 | 0.17 | 0.04
MUSK | -0.15 | -0.31 | 0.25 | -0.39
FBXO16 | 0.33 | 0.6 | -0.39 | 0.79
SFT2D2 | -0.01 | -0.22 | -0.16 | 0.37
CD55 | 0.94 | 1 | 0.85 | 0.97
POMZP3 | -0.41 | -0.51 | -0.28 | -0.45
CELF3 | -0.24 | -0.32 | 0.07 | -0.46
SLC5A6 | 1.15 | 0.9 | 1.13 | 1.44
METTL27 | 0.16 | 0.06 | 0.43 | 0
PLEK2 | 1.59 | 1.51 | 1.46 | 1.79
NDUFS1 | 1.32 | 1.15 | 1.59 | 1.23
MACROD2 | 0.21 | 0.66 | 0.29 | -0.33
ACSL5 | -0.91 | -0.82 | -0.75 | -1.17
PLOD1 | -1.4 | -1.34 | -1.16 | -1.69
TPST1 | 1.43 | 1.55 | 1.45 | 1.29
CLDN7 | -0.41 | -0.39 | -0.44 | -0.39
ASZ1 | -0.67 | -0.73 | -0.58 | -0.7
DYNLL1 | -0.78 | -0.71 | -0.93 | -0.69
P2RY13 | -0.95 | -1.07 | -0.8 | -0.98
PCCB | 2.12 (active) | 2.27 | 1.83 | 2.26
EPHX1 | 1.57 | 1.27 | 2.06 | 1.37
CYP26A1 | -0.09 | -0.15 | -0.03 | -0.08
ETFA | 2.54 (active) | 2.37 | 2.41 | 2.84
OR2T29 | -3.92 | -4.25 | -3.76 | -3.74
C4BPA | -0.46 | -0.29 | -0.3 | -0.78
ECHDC1 | -0.29 | -0.63 | -0.22 | -0.02
ZNF266 | 0.03 | -0.12 | 0.07 | 0.13
NLGN3 | 0.93 | 0.94 | 1.02 | 0.82
GRIN3A | -1.47 | -1.39 | -1.6 | -1.42
TMX2 | 0.96 | 0.98 | 1.1 | 0.81
ABCA8 | -0.34 | -0.58 | -0.3 | -0.15
